Taken from: PubChem BioAssay AID504761 (Drosophila RNAi Screening Center, 2011)

- Screen: 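Insect host genes that dengue virus relies on to spread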 (primary screen)
- Cell system: D.Mel-2 cells from Drosophila
- Knock-down reagent: long dsRNA against Drosophila genes
- Conditions: infection with dengue virus type 2; dose and infection time not stated
- Measurement: 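Cells stained for dengue envelope protein and imaged; percent of infected cells per well on duplicate plates, ranked by infection, with stained nuclei counted for cell number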
- Direction: infection score: higher = more virus-infected cells
- Active means: 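Low infection ranks in the two replicates (chance level up to 0.065) followed by a retest with a 1.5-fold or larger significant decrease, p below 0.05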
- Calls: active = confirmed: knock-down lowers infection; inactive = not picked or not confirmed
The deposit covers about 22,000 reagents; below is a random part of those with a known target gene and a result. In the full data, 116 (0.52%) got an active call. 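Calls depend on retest data that are not deposited; infection was ranked per plate without normalising between plates; the unit of the infection score is not given.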 A number with no mark means an inactive call. Reagents against one gene are numbered here. Further read-outs or replicates are left out here. No sequences are given here. Not stated in the record: the amount of reagent, the time to read-out.

Lmpt #1: infection score, replicate 1 = 1.36
Lmpt #2: infection score, replicate 1 = 2.85
Lmpt #3: infection score, replicate 1 = 4.8
Lmpt #4: infection score, replicate 1 = 3.04
Lmpt #5: infection score, replicate 1 = 1.85
Lmpt #6: infection score, replicate 1 = 7.18
Lmpt #7: infection score, replicate 1 = 1.08
Lmpt #8: infection score, replicate 1 = 12.9
Lmpt #9: infection score, replicate 1 = 8.67
Lmpt #10: infection score, replicate 1 = 14.3
CG2993 #1: infection score, replicate 1 = 3.63
CG2993 #2: infection score, replicate 1 = 4.3
CG2993 #3: infection score, replicate 1 = 11.5
